# Share of PSTVd loop 6 variants by leaf site

Source: Wu et al. 2024 (doi:10.1371/journal.ppat.1012142), supplementary data.

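A pool of all variants was put on leaves of three Nicotiana benthamiana plants. Progeny were sequenced from the inoculated region (day 5), the margin of the inoculated leaf (day 10) and systemic leaves (day 12).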

PSTVd intermediate strain, loop 6: wild type UGACCGCGAG, pool pattern UNNNCGNNNG; upper and lower strand joined, each 5' to 3', the first 5 letters being the upper strand, closing pairs included.

Numbers give reads per thousand; 0 = not seen among the reads, higher = more abundant. Each value is the mean of three plants. "Pool" is the share in the plasmid pool used as inoculum, on the same scale. The inoculated region was read from the minus strand, the other sites from the plus strand. Sequences that differ at fixed positions probably stem from PCR or sequencing errors, and defective variants can be carried along by functional ones. Wild type was 20.7 per thousand in the pool and the most common sequence in every sample (inoculated region 195, 198, 203; leaf margin 629, 591, 734; systemic leaves 942, 870, 868). Samples held 36,220 to 57,551 reads, so the smallest values rest on one or two reads.

sequence | pool | inoculated region | leaf margin | systemic leaves
UAGUCGAGUG | 0.157 | 0.101 | 0.00920 | 0
UGCACGUCUG | 0.484 | 0.0831 | 0.00920 | 0.00599
UCGUCGACGG | 0.209 | 0.0708 | 0 | 0
UUCACGGUCG | 0.301 | 0.619 | 0.0844 | 0
UUCACGUGGG | 0.222 | 0.0650 | 0 | 0
UCGCCGUCCG | 0.222 | 0.0960 | 0.00920 | 0
UUGCCGCGUG | 0.235 | 0.101 | 0.0155 | 0
UUCCCGCGGG | 0.314 | 0.0838 | 0.00773 | 0
UUAGCGUGCG | 0.118 | 0.0474 | 0.00920 | 0
UUGACGGAUG | 0.261 | 0.131 | 0 | 0
UGAGAGAGAG | 0.0131 | 0 | 0 | 0
UUCUCGUAUG | 0.366 | 0.0882 | 0.0828 | 0
UGUCCGUCAG | 0.248 | 0.0949 | 0.00773 | 0
UGUCCGCUAG | 0.170 | 0.131 | 0.0232 | 0
UCCCCGUUAG | 0.431 | 0.0775 | 0.0161 | 0.00684
UACGCGCCGG | 0.144 | 0.0656 | 0.00773 | 0
UAACCGUACG | 0.170 | 0.684 | 0.0445 | 0
UACUCGAGGG | 0.196 | 0.106 | 0 | 0
UUUACGUCCG | 0.209 | 0.0889 | 0 | 0
UAACCGCUCG | 0.261 | 0.673 | 0.0760 | 0
UCCUCGUAUG | 0.248 | 0.106 | 0.109 | 0
UAGGCGUAAG | 0.131 | 0.0480 | 0 | 0
UAUCCGCCUG | 0.353 | 0.112 | 0 | 0
UUAUCGCAUG | 0.157 | 0.0833 | 0 | 0
UCCUCGCCCG | 0.235 | 0.0588 | 0 | 0
UGCGCGUCGG | 0.209 | 0.0838 | 0 | 0
UGGCCGACUG | 0.235 | 0.138 | 0.00773 | 0
UGCUCGACUG | 0.288 | 0.0594 | 0 | 0
UAUGCGGGAG | 0.118 | 0.0830 | 0 | 0
UUGACGAUAG | 0.222 | 0.100 | 0.0711 | 0
UUACCGGGUG | 0.235 | 0.0836 | 0 | 0
UGACCGGGCG | 0.118 | 0.149 | 0.0460 | 0.0569
UUGGCGCGUG | 0.275 | 0.0773 | 0 | 0
UCUGCGCAUG | 0.248 | 0.0834 | 0 | 0.00684
UUACCGCUCG | 0.261 | 0.150 | 0 | 0
UACCCGAGUG | 0.275 | 0.114 | 0.0169 | 0
UGCCCGAGUG | 0.222 | 0.113 | 0 | 0
UUCUCGUCUG | 0.418 | 0.0654 | 0.0169 | 0
UGAUCGGGGG | 0.157 | 0.101 | 0 | 0
UAAGCGUUUG | 0.445 | 0.101 | 0.00773 | 0
UAGGCGCGAU | 0.0131 | 0.0666 | 0.00920 | 0
UCAACGGUCG | 0.248 | 0.661 | 0.119 | 0
UCUCCGCCAG | 0.170 | 0.0771 | 0.00920 | 0
UAUCCGUUUG | 0.445 | 0.144 | 0 | 0
UGACAGAGCG | 0.0131 | 0 | 0 | 0
UUAUCGCUCG | 0.405 | 0.0710 | 0 | 0
UGGACGCAUG | 0.196 | 0.107 | 0.00773 | 0
UUCUCGGAAU | 0.0261 | 0 | 0 | 0
UGCGCGCAAG | 0.0392 | 0.143 | 0.0309 | 0
UCCGCGUAGG | 0.275 | 0.107 | 0.00920 | 0
UUGCAGCACG | 0.0131 | 0 | 0 | 0
UUUUCGCACG | 0.144 | 0.0719 | 0.0169 | 0
UACCCGCCGG | 0.144 | 0.0660 | 0.00773 | 0
UACACGUGUG | 0.170 | 0.0948 | 0.0232 | 0
UGGGCGGAGA | 0.0131 | 0 | 0 | 0
UGCCCGCUUG | 0.248 | 0.118 | 0 | 0
UCCCCGAACG | 0.209 | 0.118 | 0.00773 | 0
UGAGCGUAAG | 0.170 | 0.680 | 0.0935 | 0
UAUGCGUAGG | 0.131 | 0.0774 | 0.00773 | 0
UGGCCGUUAG | 0.327 | 0.185 | 0 | 0
CGACCGCUAG | 0.0261 | 3.67 | 1.07 | 0.524
UUGCCGCGUU | 0.0131 | 0 | 0 | 0
UCUCCGGAAG | 0.157 | 0.101 | 0 | 0
UAGUCGCACG | 0.131 | 0.125 | 0 | 0
UUCGCGACGG | 0.353 | 0.119 | 0 | 0
UGUACGAUGG | 0.314 | 0.0478 | 0.0232 | 0
UUAACGUGUG | 0.301 | 0.168 | 0 | 0
GGACCGACGG | 0.0131 | 0.0238 | 0.0155 | 0
UAGCCGAUUG | 0.183 | 0.113 | 0 | 0
UAAUCGGGAG | 0.144 | 0.773 | 0.101 | 0
UAUUCGCUUG | 0.340 | 0.0994 | 0.0401 | 0
UCGACGUAGG | 0.144 | 0.0782 | 0.00920 | 0

The opening 3 entries, copied out:

sequence	pool	inoculated region	leaf margin	systemic leaves
UAGUCGAGUG	0.157	0.101	0.00920	0
UGCACGUCUG	0.484	0.0831	0.00920	0.00599
UCGUCGACGG	0.209	0.0708	0	0